Measurements from patent publication US20230391845A1, “GLP-1, GIP AND GLUCAGON RECEPTOR TRIPLE AGONISTS” (priority 2020, published 2023).
*1 amine or outer side, *2 acyl side, *3 side chain or, on linkers, in order; H or OH if unused. Where a SMILES comes first, the peptide text is derived from it. Side-chain parts run from the residue outwards. [ ]: non-standard residue; d: D form. The star is where a group is joined. C20 diacid = O=C(O)CCCCCCCCCCCCCCCCCCC(=O)*; γGlu = O=C(O)[C@H](CCC(=O)[*:2])N[*:1]; εLys = N[C@@H](CCCCN[*:1])C(=O)[*:2]; Aib = CC(C)(N)C(=O)O

Assay: Maximal efficacy study in DIO mice, daily s.c. dose titration for up to 60 days (body weight, food intake)
Format: in vivo, C57BL/6J male mice
Conditions: last day any mouse of the group received treatment before being removed from the study (body weight 22.5 g or less)
Method: The purpose of this example is to assess the in vivo effect of selected triple agonists on pharmacodynamic parameters in diet-induced obese (DIO) mice. The animals were treated once daily via subcutaneous injection with a liquid formulation of the triple agonist to be tested to assess effects on body weight, foot intake, and glucose tolerance.
C57BL/6J male mice were purchased from Jackson Laboratories at approximately 8 weeks of age. Mice were group housed and fed a high-fat, high-sugar diet from Research Diets (D12331). Mice were maintained on this diet for 12 weeks prior to initializing the pharmacology studies. Mice exceeding a measured body weight of 50 grams were considered diet-induced obese (DIO) and included in pharmacology studies. Mice were exposed to a controlled 12 h:12 h light:dark cycle at ambient room temperature (22° C.) with ab libitum access to food and water. Studies were approved by and performed according to the guidelines of the Institutional Animal Care and Use Committee of the University of Cincinnati.
All compounds in the study were formulated in the following buffer: 50 mM phosphate; 70 mM sodium chloride; 0.05% Tween-80, pH 7.4. […]
Body weight (BW) and food intake were measured immediately prior to dosing each day. The percent change in body was calculated individually for each mouse based on initial body weight prior to the first injection. […]

SMILES | Last day of treatment
CC[C@H](C)[C@H](NC(=O)[C@H](CO)NC(=O)[C@H](Cc1ccc(O)cc1)NC(=O)[C@H](CC(=O)O)NC(=O)[C@H](CO)NC(=O)[C@@H](NC(=O)[C@H](Cc1ccccc1)NC(=O)[C@@H](NC(=O)CNC(=O)[C@H](Cc1c[nH]cn1)NC(=O)C(C)(C)NC(=O)[C@@H](N)Cc1c[nH]cn1)[C@@H](C)O)[C@@H](C)O)C(=O)N[C@@H](Cc1ccc(O)cc1)C(=O)N[C@@H](CC(C)C)C(=O)N[C@@H](CCC(=O)O)C(=O)N[C@@H](CCCCNC(=O)[C@@H](N)CCCCNC(=O)[C@@H](N)CCCCNC(=O)CC[C@H](NC(=O)CCCCCCCCCCCCCCCCCCC(=O)O)C(=O)O)C(=O)N[C@@H](CCCCN)C(=O)N[C@@H](C)C(=O)N[C@@H](C)C(=O)NC(C)(C)C(=O)N[C@@H](CCC(=O)O)C(=O)N[C@@H](Cc1ccccc1)C(=O)N[C@H](C(=O)N[C@@H](CCC(N)=O)C(=O)N[C@@H](Cc1c[nH]c2ccccc12)C(=O)N[C@@H](CC(C)C)C(=O)N[C@@H](CC(C)C)C(=O)N[C@@H](CCC(=O)O)C(=O)NCC(=O)NCC(=O)N1CCC[C@H]1C(=O)N[C@@H](CO)C(=O)N[C@@H](CO)C(=O)NCC(=O)N[C@@H](C)C(=O)N1CCC[C@H]1C(=O)N1CCC[C@H]1C(=O)N1CCC[C@H]1C(=O)N[C@@H](CO)C(N)=O)C(C)C [Compound No. 33] (H-H[Aib]HGTFTSDYSIYLEK([εLys-εLys-γGlu-C20 diacid])KAA[Aib]EFVQWLLEGGPSSGAPPPS-NH2) | 43
CC[C@H](C)[C@H](NC(=O)[C@H](CO)NC(=O)[C@H](Cc1ccc(O)cc1)NC(=O)[C@H](CC(=O)O)NC(=O)[C@H](CO)NC(=O)[C@@H](NC(=O)[C@H](Cc1ccccc1)NC(=O)[C@@H](NC(=O)CNC(=O)[C@H](Cc1c[nH]cn1)NC(=O)C(C)(C)NC(=O)[C@@H](N)Cc1c[nH]cn1)[C@@H](C)O)[C@@H](C)O)C(=O)N[C@@H](Cc1ccc(O)cc1)C(=O)N[C@@H](CC(C)C)C(=O)N[C@@H](CCC(=O)O)C(=O)N[C@@H](CCCCNC(=O)[C@@H](N)CCCCNC(=O)[C@@H](N)CCCCNC(=O)CC[C@H](NC(=O)CCCCCCCCCCCCCCCCCCC(=O)O)C(=O)O)C(=O)N[C@@H](CCCCN)C(=O)N[C@@H](Cc1ccc(O)cc1)C(=O)N[C@@H](C)C(=O)NC(C)(C)C(=O)N[C@@H](CCC(=O)O)C(=O)N[C@@H](Cc1ccccc1)C(=O)N[C@H](C(=O)N[C@@H](CCC(N)=O)C(=O)N[C@@H](Cc1c[nH]c2ccccc12)C(=O)N[C@@H](CC(C)C)C(=O)N[C@@H](CC(C)C)C(=O)N[C@@H](CCC(=O)O)C(=O)NCC(=O)NCC(=O)N1CCC[C@H]1C(=O)N[C@@H](CO)C(=O)N[C@@H](CO)C(=O)NCC(=O)N[C@@H](C)C(=O)N1CCC[C@H]1C(=O)N1CCC[C@H]1C(=O)N1CCC[C@H]1C(=O)N[C@@H](CO)C(N)=O)C(C)C [Compound No. 30] (H-H[Aib]HGTFTSDYSIYLEK([εLys-εLys-γGlu-C20 diacid])KYA[Aib]EFVQWLLEGGPSSGAPPPS-NH2; N-terminus assumed) | 37
